Tests used:
[1] = target: HIV-1 PR (Human immunodeficiency virus type 1 group M subtype B, UniProt P04585); assay: HIV-protease inhibitory activity assay (FRET peptide substrate); type: biochemical; conditions: Test Example 1
[2] = Evaluation of total body clearance (CLtot), intravenous administration; type: in vivo, Sprague-Dawley (SD); conditions: rat (SD), intravenous administration 0.5-10 mg/kg; CLtot = dose/AUC
[3] = Protein binding test (equilibrium dialysis, unbound ratio fu in serum); type: in vitro ADME; conditions: rat serum, equilibrium dialysis 24 hours, 37° C., 2 μg/mL

| Structure (SMILES) | IC50 [1] | rat_CLt [2] | rat_fu [3] |
| --- | --- | --- | --- |
| COc1ccc(S(=O)(=O)N(CC(C)C)C[C@@H](O)[C@H](Cc2ccc(NCc3cc(-c4ccc5ccccc5c4)ccc3-c3sc4c(c3C(=O)O)CC(C)(C)CC4)cc2)NC(=O)O[C@H]2CO[C@@]3(C)OCC[C@@H]23)cc1 | 4.89 nM | 0.0392 mL/min/kg | – |
| COc1ccc(S(=O)(=O)N(CC(C)C)C[C@@H](O)[C@H](Cc2ccc(N3CC[C@@H](Oc4ccc(-c5sc6c(c5C(=O)O)CC(C)(C)CC6)c(C)c4)C3)cc2)NC(=O)O[C@H]2CO[C@@]3(C)OCC[C@@H]23)cc1 | 6.83 nM | 1.78 mL/min/kg | – |
| COc1ccc(S(=O)(=O)N(CC(C)C)C[C@@H](O)[C@H](Cc2ccc(NC[C@H]3CCCC[C@H]3c3sc4c(c3C(=O)O)CC(C)(C)CC4)cc2)NC(=O)O[C@H]2CO[C@H]3OCC[C@H]32)cc1 | 2.64 nM | 0.372 mL/min/kg | – |
| COc1ccc(S(=O)(=O)N(CC(C)C)C[C@@H](O)[C@H](Cc2ccc(NCc3nc(N4CCCC4)ccc3-c3sc4c(c3C(=O)O)CC(C)(C)CC4)cc2)NC(=O)O[C@H]2CO[C@@]3(C)OCC[C@@H]23)cc1 | 1.73 nM | 0.0528 mL/min/kg | – |
| COc1ccc(S(=O)(=O)N(CC(C)C)C[C@@H](O)[C@H](Cc2ccc(NCc3cc(-c4ccncc4)ccc3-c3sc4c(c3C(=O)O)CC(C)(C)CC4)cc2)NC(=O)O[C@H]2CO[C@@]3(C)OCC[C@@H]23)cc1 | 1.9 nM | 0.066 mL/min/kg | – |
| COc1ccc(S(=O)(=O)N(CC(C)C)C[C@@H](O)[C@H](Cc2ccc(OCc3cccc(C)c3-c3sc4c(c3C(=O)O)CC(C)(C)CC4)cc2)NC(=O)O[C@H]2CO[C@@]3(C)OCC[C@@H]23)cc1 | 1.79 nM | 0.363 mL/min/kg | <0.1% |
| COc1ccc(S(=O)(=O)N(CC(C)C)C[C@@H](O)[C@H](Cc2ccc(NCc3cc(C4CC4)ccc3-c3sc4c(c3C(=O)O)CC(C)(C)CC4)cc2)NC(=O)O[C@H]2CO[C@@]3(C)OCC[C@@H]23)cc1 | 2.82 nM | 0.212 mL/min/kg | – |
| COc1ccc(S(=O)(=O)N(CC(C)C)C[C@@H](O)[C@H](Cc2ccc(N(C)CC3CCCCC3C(=O)Nc3sc4c(c3C(=O)O)CC(C)(C)CC4)cc2)NC(=O)O[C@H]2CO[C@@]3(C)OCC[C@@H]23)cc1 (single isomer, unassigned) | 3.81 nM | 0.176 mL/min/kg | – |
| COc1ccc(S(=O)(=O)N(CC(C)C)C[C@@H](O)[C@H](Cc2ccc(OCc3ccccc3-c3ccc(Cn4nc5c(c4C(=O)O)CC(C)(C)CC5)cc3)cc2)NC(=O)O[C@H]2CO[C@@]3(C)OCC[C@@H]23)cc1 | 2.86 nM | 3.97 mL/min/kg | <0.1% |
| COc1ccc(S(=O)(=O)N(CC(C)C)C[C@@H](O)[C@H](Cc2ccc(Oc3ccc(-c4sc5c(c4C(=O)O)CC(C)(C)CC5)c(C)c3)cc2)NC(=O)O[C@H]2CO[C@@]3(C)OCC[C@@H]23)cc1 | 2.22 nM | 0.784 mL/min/kg | <0.1% |
| COc1ccc(S(=O)(=O)N(CC(C)C)C[C@@H](O)[C@H](Cc2ccc(NCC3CCCCC3C(=O)Nc3sc4c(c3C(=O)O)CC(C)(C)CC4)cc2)NC(=O)O[C@H]2CO[C@@]3(C)OCC[C@@H]23)cc1 (single isomer, unassigned) [I-623] | 4.24 nM | 1.83 mL/min/kg | – |
| COc1ccc(S(=O)(=O)N(CC(C)C)C[C@@H](O)[C@H](Cc2ccc(N(C)C3CN(c4ccccc4-c4sc5c(c4C(=O)O)CC(C)(C)CC5)C3)cc2)NC(=O)O[C@H]2CO[C@@]3(C)OCC[C@@H]23)cc1 | 3.56 nM | 1.1 mL/min/kg | <0.1% |
| COc1ccc(S(=O)(=O)N(CC(C)C)C[C@@H](O)[C@H](Cc2ccc(NC[C@@H]3CCCCN3C(=O)Nc3sc4c(c3C(=O)O)CC(C)(C)CC4)cc2)NC(=O)O[C@H]2CO[C@@]3(C)OCC[C@@H]23)cc1 | 1.93 nM | 0.699 mL/min/kg | – |
| COc1ccc(S(=O)(=O)N(CC(C)C)C[C@@H](O)[C@H](Cc2ccc(NC[C@@H]3CCCC[C@H]3c3sc4c(c3C(=O)O)CC(C)(C)CC4)cc2)NC(=O)O[C@H]2CO[C@@]3(C)OCC[C@@H]23)cc1 | 3.26 nM | 0.868 mL/min/kg | <0.1% |
| COc1ccc(S(=O)(=O)N(CC(C)C)C[C@@H](O)[C@H](Cc2ccc(NCc3cc(-c4ccc(C(F)(F)F)cc4)ccc3-c3sc4c(c3C(=O)O)CC(C)(C)CC4)cc2)NC(=O)O[C@H]2CO[C@@]3(C)OCC[C@@H]23)cc1 | 5.07 nM | 0.0366 mL/min/kg | – |
| COc1ccc(S(=O)(=O)N(CC(C)C)C[C@@H](O)[C@H](Cc2ccc(NCc3ccccc3-c3sc4c(c3C(=O)O)CC(C)(C)CC4)cc2)NC(=O)O[C@H]2CO[C@@]3(C)OCC[C@@H]23)cc1 | 2.57 nM | 1.71 mL/min/kg | <0.1% |
| COc1ccc(S(=O)(=O)N(CC(C)C)C[C@@H](O)[C@H](Cc2ccc(O[C@H]3CCN(c4ccccc4-c4sc5c(c4C(=O)O)CC(C)(C)CC5)C3)cc2)NC(=O)O[C@H]2CO[C@@]3(C)OCC[C@@H]23)cc1 | 2.15 nM | 0.985 mL/min/kg | <0.1% |
| COc1ccc(S(=O)(=O)N(CC(C)C)C[C@@H](O)[C@H](Cc2ccc(OCC3CCCCC3c3sc4c(c3C(=O)O)CC(C)(C)CC4)cc2)NC(=O)O[C@H]2CO[C@@]3(C)OCC[C@@H]23)cc1 (single isomer, unassigned) [I-10-2] | 4.47 nM | 0.092 mL/min/kg | <0.1% |
| COc1ccc(S(=O)(=O)N(CC(C)C)C[C@@H](O)[C@H](Cc2ccc(NCc3ccccc3C(=O)Nc3sc4c(c3C(=O)O)CC(C)(C)CC4)cc2)NC(=O)O[C@H]2CO[C@H]3OCC[C@H]32)cc1 | 2.64 nM | 0.0831 mL/min/kg | – |
| COc1ccc(S(=O)(=O)N(CC(C)C)C[C@@H](O)[C@H](Cc2ccc(N3CC[C@H](Oc4cc5ccccc5cc4C(=O)Nc4sc5c(c4C(=O)O)CC(C)(C)CC5)C3)cc2)NC(=O)O[C@H]2CO[C@@]3(C)OCC[C@@H]23)cc1 | 5.26 nM | 0.0285 mL/min/kg | – |
| COc1ccc(S(=O)(=O)N(CC(C)C)C[C@@H](O)[C@H](Cc2ccc(NCc3cc(-c4ccccc4)ccc3-c3sc4c(c3C(=O)O)CC(C)(C)CC4)cc2)NC(=O)O[C@H]2CO[C@@]3(C)OCC[C@@H]23)cc1 | 4.06 nM | 0.0474 mL/min/kg | – |
| COc1ccc(S(=O)(=O)N(CC(C)C)C[C@@H](O)[C@H](Cc2ccc(N(C)Cc3nc(N4CCCC4)sc3-c3sc4c(c3C(=O)O)CC(C)(C)CC4)cc2)NC(=O)O[C@H]2CO[C@@]3(C)OCC[C@@H]23)cc1 | 2.01 nM | 0.826 mL/min/kg | – |
| COc1ccc(S(=O)(=O)N(CC(C)C)C[C@@H](O)[C@H](Cc2ccc(NCc3cc(N4CCCC4=O)ccc3-c3sc4c(c3C(=O)O)CC(C)(C)CC4)cc2)NC(=O)O[C@H]2CO[C@@]3(C)OCC[C@@H]23)cc1 | 1.96 nM | 0.107 mL/min/kg | – |
| COc1ccc(S(=O)(=O)N(CC(C)C)C[C@@H](O)[C@H](Cc2ccc(NC[C@@H]3CCCC[C@@H]3c3sc4c(c3C(=O)O)CC(C)(C)CC4)cc2)NC(=O)O[C@H]2CO[C@H]3OCC[C@H]32)cc1 | 2.57 nM | – | – |
| COc1ccc(S(=O)(=O)N(CC(C)C)C[C@@H](O)[C@H](Cc2ccc(N(C)Cc3ccccc3-c3ccc(Nc4sc5c(c4C(=O)O)CC(C)(C)CC5)cc3)cc2)NC(=O)O[C@H]2CO[C@@]3(C)OCC[C@@H]23)cc1 | 51 nM | – | – |

Reference: patent US20170253607A1
